Where a protein sequence is shown, tags need not be part of it. The exact form of at least one protein or probe is not confirmed. At least one verdict was read from the data and is not stated in words by the source.
Columns and labels:
[1] = biological target: T1, His-CioR (Chromobacterium violaceum) (UniProt Q7NRW9); assay: competition with a labelled probe; details: 10-fold excess unlabeled specific probe vs N1, 1 uM His-CioR; 20 mM Tris-HCl pH 8.0, 50 mM NaCl, 1.5 mM MgSO4, 0.5 mM CaCl2, 0.1 mg/mL BSA, 1 mM DTT, 0.05% NP-40, 10% glycerol, 0.1 mg/mL salmon sperm DNA, 50 ng probe, 20 uL; 37 C; recombinant protein; residues 1-191; probe letters rebuilt from the primers and the genome
T1 sequence (looked up): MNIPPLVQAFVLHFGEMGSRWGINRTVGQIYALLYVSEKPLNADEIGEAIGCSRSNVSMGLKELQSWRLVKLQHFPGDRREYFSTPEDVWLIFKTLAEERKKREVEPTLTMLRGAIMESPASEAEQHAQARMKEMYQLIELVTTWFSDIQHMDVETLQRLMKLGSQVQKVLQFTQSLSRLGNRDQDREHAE

[2] = biological target: T1, His-CioR (Chromobacterium violaceum); assay: EMSA; details: 20 mM Tris-HCl pH 8.0, 50 mM NaCl, 1.5 mM MgSO4, 0.5 mM CaCl2, 0.1 mg/mL BSA, 1 mM DTT, 0.05% NP-40, 10% glycerol, 0.1 mg/mL salmon sperm DNA, 50 ng probe, 20 uL, 37 C, recombinant protein, residues 1-191, probe letters rebuilt from the primers and the genome

Measured: binding result

AAATGCAGCACGAAAGCCTGCACCAGAGGTGGAATATTCATGACATTCTCAACTTTCAGGAATTTCTGAAACTTTGATATGAATCATAGTTGCCCAAGATAGTTCGGGTCAAGATGAACAAAGTCTGATCTGTAGGCTTGACCATACCTCCATGTCATGAATGCGCGCGCAAAAAAGGCCATGCATCGCATGGCCTGGATCGTGGAGAGCCGGGCGGCGTTCCGACTCGCGGCTGGCCGCGACTCCGTTACCGCAGCAGGATCGCGCGAAAATCGTTGACGTTGGTATGGGTGGGGCCGGTGACCAGCAGATCGCCCAGCG (double strand) [cioRAB promoter unlabeled probe]
binds: [1] | [2]; H2O2 | [2]; iron + EDTA | [2]; no stressor, ethidium bromide detection | [2]; streptonigrin | [2]; zinc + EDTA

AAATGCAGCACGAAAGCCTGCACCAGAGGTGGAATATTCATGACATTCTCAACTTTCAGGAATTTCTGAAACTTTGATATGAATCATAGTTGCCCAAGATAGTTCGGGTCAAGATGAACAAAGTCTGATCTGTAGGCTTGACCATACCTCCATGTCATGAATGCGCGCGCAAAAAAGGCCATGCATCGCATGGCCTGGATCGTGGAGAGCCGGGCGGCGTTCCGACTCGCGGCTGGCCGCGACTCCGTTACCGCAGCAGGATCGCGCGAAAATCGTTGACGTTGGTATGGGTGGGGCCGGTGACCAGCAGATCGCCCAGCG (double strand) [cioRAB-FAM promoter probe]
binds: [2]; salmon sperm DNA 0.1 mg/mL, label: 6-FAM (5' of reverse primer)

Reference: article PMC11837568
